Biological target: T1, cytosolic domain of human TOM70 (111-608) with E477A (human, UniProt O94826 111-608, E477A)
T1 sequence: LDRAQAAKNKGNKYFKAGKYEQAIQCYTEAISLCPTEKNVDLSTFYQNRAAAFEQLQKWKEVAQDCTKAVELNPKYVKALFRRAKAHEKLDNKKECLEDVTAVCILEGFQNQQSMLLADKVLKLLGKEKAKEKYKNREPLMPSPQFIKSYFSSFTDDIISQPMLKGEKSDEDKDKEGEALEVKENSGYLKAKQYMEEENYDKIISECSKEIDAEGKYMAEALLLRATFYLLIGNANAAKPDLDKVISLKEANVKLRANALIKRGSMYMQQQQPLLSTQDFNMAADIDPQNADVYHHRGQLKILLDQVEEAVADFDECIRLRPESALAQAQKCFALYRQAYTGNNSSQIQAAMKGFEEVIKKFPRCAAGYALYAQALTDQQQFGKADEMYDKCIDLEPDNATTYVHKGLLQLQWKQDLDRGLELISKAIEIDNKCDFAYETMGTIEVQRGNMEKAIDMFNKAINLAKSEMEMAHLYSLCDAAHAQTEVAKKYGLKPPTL
Experiment: […]; 7% ([…]; 40 min, 30 °C; […], pH 7.2; […]
Settings: one partner purified

B1: SARS-CoV-2 Orf9b wild type, radiolabeled, synthesized in reticulocyte lysate (natural protein)
chain: not shown
modifications: [35S]-methionine label
Q: How did the “percent reduction of binding against TOM70WT” value turn out when B1 was run?
A: 73%
